From PMC5648786, “Characterization of a dual function macrocyclase enables design and use of efficient macrocyclization substrates” (Nature Communications, 2017)

Biological target: T1, GmPOPB-H698A (Galerina marginata, UniProt H2E7Q8 1-730, H698A)
T1 sequence: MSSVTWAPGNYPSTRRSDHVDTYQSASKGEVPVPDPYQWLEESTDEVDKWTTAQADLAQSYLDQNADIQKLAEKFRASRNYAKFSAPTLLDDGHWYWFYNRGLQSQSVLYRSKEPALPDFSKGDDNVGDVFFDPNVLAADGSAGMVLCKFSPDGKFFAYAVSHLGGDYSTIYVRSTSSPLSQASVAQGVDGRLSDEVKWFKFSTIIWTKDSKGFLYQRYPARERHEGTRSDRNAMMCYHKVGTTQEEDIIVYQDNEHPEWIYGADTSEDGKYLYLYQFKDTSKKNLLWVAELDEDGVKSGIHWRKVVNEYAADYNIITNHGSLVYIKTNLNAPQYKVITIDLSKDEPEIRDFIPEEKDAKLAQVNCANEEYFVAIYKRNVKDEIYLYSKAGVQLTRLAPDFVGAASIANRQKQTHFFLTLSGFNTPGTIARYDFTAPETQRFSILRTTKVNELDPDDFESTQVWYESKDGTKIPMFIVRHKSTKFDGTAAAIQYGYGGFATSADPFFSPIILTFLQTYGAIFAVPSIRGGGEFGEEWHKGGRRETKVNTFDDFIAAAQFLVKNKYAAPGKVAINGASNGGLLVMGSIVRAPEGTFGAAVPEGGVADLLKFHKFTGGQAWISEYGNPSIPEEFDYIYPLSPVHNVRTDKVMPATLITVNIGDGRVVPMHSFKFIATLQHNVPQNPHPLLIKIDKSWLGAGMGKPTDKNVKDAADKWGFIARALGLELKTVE
Experiment: ITC
Conditions: both partners purified

B1: 25mer substrate (core, linker and recognition tail) (peptide)
peptide: IWGIGCNPWTAEHVDQTLASGNDIC
notes: also called 25mer peptide
  Kd: 47 nM
